Pooled drug test results. Numbers come from NIAID ChemDB, via PubChem.

Shared fields: whole-cell or culture tests; organism: HIV-1

a–b is a range or a potency band. Lines come from different laboratories, so protocols vary. ECn: concentration that inhibits the pathogen or its effect by n%.

Nc1nc(-c2ccc(Br)cc2Br)c(SCC(=O)Nc2ccc(Cl)cc2Cl)s1 ; strain: IIIB ; measure: EC50 ; read by: MTT ; cells: MT-4 ; result: >20.73 µM
Cc1occc1C(=S)Nc1ccc(Cl)c(/C=N/OC(C)(C)C)c1 ; strain: IIIB ; measure: EC50 ; read by: cytopathic effect / XTT ; cells: CEM + CEM-SS ; result: 0.4 µM
O=C(O)c1cn2c3c(c(N4CCN(c5ccccn5)CC4)c(F)cc3c1=O)OCC2CF ; strain: IIIB ; measure: EC50 ; read by: p24 ; cells: CEM ; result: 0.19 µg/mL
COC(=O)[C@H](C)NP(=O)(OC[C@@H]1C=C[C@H](n2cc(C)c(=O)[nH]c2=O)O1)Oc1ccc(Br)cc1 ; changes: RT-M41L D67N T69N K70R T215F K219E ; strain: 7324-1 NRTI resistant recombinant ; measure: EC50 ; read by: RT activity ; cells: PBMC ; result: 0.0008 µM
C1CNCCCN(CCC[N+]2(CCCN3CCCNCCCNCCC3)CCCNCCCNCCC2)CCCNC1 ; strain: IIIB ; measure: EC50 ; read by: cytopathic effect ; cells: MT-4 ; result: 2.5 µM
CCn1cc(C(=O)O)c(=O)c2cc(F)c(N3CCNCC3)cc21 ; strain: IIIB ; measure: EC50 ; read by: cytopathic effect / XTT ; cells: MT-4 ; result: >50 µg/mL
CCCc1cc(=O)oc2c3c(c4c(c12)OC(C)(C)C=C4)O[C@@H](C)[C@H](C)[C@@H]3O ; changes: RT-Y181C K101E ; strain: UC10-resistant (RT Y181C K101E) ; measure: EC50 ; read by: cytopathic effect / XTT ; cells: CEM + CEM-SS ; result: 4.4 µM
Nc1nc2c(ncn2[C@H]2C=C[C@@H](CO)O2)c(=O)[nH]1 ; strain: IIIB ; measure: EC50 ; read by: cytopathic effect / MTT ; cells: MT-2 ; result: 4.5 µM
Cc1cn([C@H]2C[C@H](N=[N+]=[N-])[C@@H](CO)O2)c(=O)[nH]c1=O ; strain: LAI WT ; measure: EC50 ; read by: cytopathic effect / MTT ; cells: MT-2 ; result: 0.5 µM
CC(C)=CCN1Cc2cc(Cl)cc3[nH]c(=S)n(c23)C[C@@H]1C ; strain: 214 ; measure: EC50 ; read by: cytopathic effect / MTT ; cells: CEM + CEM-SS ; result: 0.161 µM
Cc1ccnc2c1NC(=O)c1cccnc1N2C1CC1 ; strain: IIIB ; measure: EC50 ; read by: MTT ; cells: MT-4 ; result: 0.19 µM
Oc1cc(O)c2c(c1)O[C@@H](c1ccc(O)c(O)c1)[C@@H](O)C2 ; measure: EC50 ; cells: C8166 ; result: 4 µg/mL
CCCc1cc(=O)oc2c3c(c4c(c12)OC(C)(C)C=C4)O[C@H](C)[C@@H](C)[C@@H]3O ; changes: RT-L100I ; strain: Dihydrocostatolide-resistant (RT-L100I) ; measure: EC50 ; read by: XTT ; cells: CEM + CEM-SS ; result: 7.2 µM
Cc1ccnc2c1NC(=O)c1cccnc1N2C1CC1 ; changes: RT-L100I ; strain: Oxathiin carboxanilide-resistant RT L100I ; measure: EC50 ; read by: cytopathic effect / XTT ; cells: CEM + CEM-SS ; result: 0.1 µM
c1cc(CN2CCCNCCNCCCNCC2)ccc1CN1CCCNCCNCCCNCC1 ; strain: PERE98287RT Recombinant ; measure: EC50 ; result: 0.02 µM
Nc1ncnc2c1ncn2CCCCO ; strain: IIIB ; measure: EC50 ; read by: cytopathic effect / trypan blue ; cells: ATH8 ; result: >1000 µM
CCNc1cccnc1N1CCN(C(=O)c2cc3cc(OC)ccc3[nH]2)CC1 ; strain: IIIB ; measure: EC50 ; read by: p24 ; cells: PBL ; result: 0.001–0.01 µM
Cc1ccnc2c1NC(=O)c1cccnc1N2C1CC1 ; changes: RT-P236L ; strain: HEPT-resistant (RT P236L) ; measure: EC50 ; read by: XTT ; cells: CEM + CEM-SS ; result: 0.02 µM
Nc1ncnc2c1ncn2[C@H]1CC[C@@H](CO)O1 ; strain: IIIB ; measure: EC50 ; read by: cytopathic effect ; cells: MT-4 ; result: 19.2 µM
Nc1nc(NC2CC2)c2ncn([C@H]3C=C[C@@H](CO)C3)c2n1 ; changes: RT-Q151M ; measure: EC50 ; read by: cytopathic effect / MTT ; cells: MT-2 ; result: 5.5 µM
Cc1cc(Br)cc(C)c1Oc1cc(Nc2ccc(C#N)cc2)c(N)cc1[N+](=O)[O-] ; strain: RF ; measure: EC50 ; read by: p24 / ELISA ; cells: MT-2 ; result: 20.3 µM
CC(C)CN(C[C@@H](O)[C@H](Cc1ccccc1)NC(=O)O[C@H]1CCOC1)S(=O)(=O)c1ccc(N)cc1 ; changes: Gag H219Q R409K L449F E468K PR L10F V32I M46I I54M A71V I84V ; strain: GAG-L75 H219Q V390 APV-resistant ; measure: EC50 ; read by: cytopathic effect / MTT ; cells: MT-2 ; result: >2.5 µM
O=C(CSc1sc(Cl)nc1-c1ccc(Br)cc1Br)Nc1cccnc1Cl ; changes: L100I ; strain: IIIB ; measure: EC50 ; read by: MTT ; cells: MT-4 ; result: 7.68 µM
Nc1nc(NC2CC2)c2ncn([C@H]3C=C[C@@H](CO)O3)c2n1 ; changes: RT-K65R ; strain: BRU PITT.(RT-K65R) ; measure: EC90 ; read by: cytopathic effect / MTT ; cells: PBMC ; result: >100 µM
C[C@@H]1O[C@@H](Oc2c(-c3cc(O)c(O)c(O)c3)oc3cc(O)cc(O)c3c2=O)[C@H](O)[C@H](O)[C@H]1O ; measure: EC50 ; cells: C8166 ; result: 100 µg/mL
C1CCNCCCNCCCNCCCN(CCC[N+]2(CCCN3CCCNCCCNCCCNCCCCNCCCNCCCNCCC3)CCCNCCCNCCCNCCCCNCCCNCCCNCCC2)CCCNCCCNCCCNC1 ; strain: IIIB ; measure: EC50 ; read by: cytopathic effect ; cells: MT-4 ; result: 0.67 µM
CCOCn1c(Cc2ccccc2)c(C(C)C)c(=O)[nH]c1=O ; changes: RT-K103N ; measure: EC50 ; read by: cytopathic effect / MTT ; cells: MT-4 ; result: 0.8 µM
Cc1ccnc2c1NC(=O)c1cccnc1N2C1CC1 ; changes: DS-resistant ; strain: NL4-3 ; measure: EC50 ; result: 0.02 µM
CC(=O)c1ccc(C)cc1NC(C(N)=O)c1c(Cl)cccc1Cl ; changes: RT-T240I ; strain: IIIB ; measure: EC50 ; read by: MTT ; cells: MAGI ; result: 0.22 µM
COc1cc(O)c2c(=O)c3c(O)c(-c4c(O)c([C@@H]5O[C@H](CO)[C@@H](O)[C@H](O)[C@H]5O)c(O)c5c(=O)cc(-c6ccc(O)c(O)c6)oc45)cc(O)c3oc2c1 ; strain: IIIB ; measure: EC50 ; read by: p24 ; cells: H9 ; result: 30.9 µg/mL
Fc1cccc(F)c1C1SCc2nc3ccccc3n21 ; strain: PM16 ; measure: EC50 ; read by: cytopathic effect / XTT ; cells: CEM + CEM-SS ; result: 2.19 µM
C1CCNCCCN(CCCN2CCCNCCCCNCCCNCCCNCCCNCCCCNCCC2)CCCNCCCCNCCCNCCCNCCCNC1 ; strain: IIIB ; measure: EC50 ; read by: cytopathic effect ; cells: MT-4 ; result: 1.2 µM
Cc1cn([C@H]2C[C@H](N=[N+]=[N-])[C@@H](CO)O2)c(=O)[nH]c1=O ; strain: IIIB ; measure: EC50 ; read by: cytopathic effect / XTT ; cells: MT-4 ; result: 0.0068 µg/mL
Nc1ncnc2c1ncn2C=C=CCO ; strain: IIIB ; measure: EC50 ; read by: cytopathic effect / trypan blue ; cells: ATH8 ; result: ~10 µM
C1CCNCCCNCCCNCCCCNCCCNCCCNCCCCNCCCNCCCNCCCNCCCCNCCCNC1 ; strain: IIIB ; measure: EC50 ; read by: cytopathic effect ; cells: MT-4 ; result: 3.8 µM
Oc1cc(O)c2c(c1)O[C@H](c1ccc(O)c(O)c1)[C@H](O)C2 ; measure: EC50 ; cells: C8166 ; result: 2 µg/mL
Nc1ncnc2c1ncn2[C@H]1CC[C@@H](CO)O1 ; strain: IIIB ; measure: EC50 ; read by: syncytia ; cells: C8166 ; result: 4 µM
Cc1cn([C@H]2C[C@H](N=[N+]=[N-])[C@@H](CO)O2)c(=O)[nH]c1=O ; strain: CLADE E ; measure: EC50 ; read by: RT activity ; cells: PBMC ; result: 0.1 µM
O=C1Nc2ccc(Cl)cc2[C@@](C#CC2CC2)(C(F)(F)F)O1 ; changes: E138K ; strain: IIIB ; measure: EC50 ; read by: MTT ; cells: MT-4 ; result: 0.108 µM
Nc1ncnc2c1ncn2CC(O)CCO ; strain: IIIB ; measure: EC50 ; read by: cytopathic effect / trypan blue ; cells: ATH8 ; result: >100 µM
CC(C)Nc1cccnc1N1CCN(C(=O)c2cc3cc(NS(C)(=O)=O)ccc3[nH]2)CC1 ; changes: K103N ; strain: IIIB ; measure: EC50 ; read by: MTT ; cells: MT-4 ; result: 1.72 µM
COc1ccc(-c2cc(=O)c3c(O)cc(O[C@@H]4O[C@H](CO)[C@H](O)[C@H](O)[C@H]4O)cc3o2)cc1 ; strain: IIIB ; measure: EC50 ; read by: p24 ; cells: H9 ; result: 8 µg/mL
CN1N=C(N)c2cn([C@@H]3O[C@H](COP(=O)(O)O)[C@@H](O)[C@H]3O)c3ncnc1c23 ; strain: IIIB ; measure: EC50 ; read by: RT activity ; result: 0.03 µM
CC(C)c1nc(CN(C)C(=O)N[C@H](C(=O)N[C@@H](Cc2ccccc2)C[C@H](O)[C@H](Cc2ccccc2)NC(=O)OCc2cncs2)C(C)C)cs1 ; strain: NL4-3 ; measure: EC50 ; cells: MT-4 ; result: 0.08 µM
Cc1cn([C@H]2C[C@H](N=[N+]=[N-])[C@@H](CO)O2)c(=O)[nH]c1=O ; changes: RT-M41L D67N K70R T215Y K219Q ; strain: G190-6 NRTI resistant ; measure: EC50 ; read by: p24 ; cells: PBMC ; result: >3.2 µM
Cc1cn([C@H]2C[C@H](N=[N+]=[N-])[C@@H](CO)O2)c(=O)[nH]c1=O ; changes: AMD3100-resistant ; strain: NL4-3 ; measure: EC50 ; result: 0.006 µM
CCCc1cc(=O)oc2c3c(c4c(c12)OC(C)(C)C=C4)O[C@@H](C)[C@H](C)[C@@H]3O ; changes: RT-K103N ; strain: UC10-resistant (RT K103N) ; measure: EC50 ; read by: XTT ; cells: CEM + CEM-SS ; result: >270 µM
CC(C)Nc1cccnc1N1CCN(C(=O)c2cc3cc(NS(C)(=O)=O)ccc3[nH]2)CC1 ; strain: JR-FL ; measure: EC50 ; read by: p24 ; cells: MM + M/M ; result: 0.02 µM
Nc1nc(-c2ccc(Br)cc2Br)c(SCC(=O)Nc2cccnc2Cl)s1 ; strain: IIIB ; measure: EC50 ; read by: MTT ; cells: MT-4 ; result: >45.73 µM
Nc1ncnc2c1ncn2[C@H]1CC[C@@H](CO)O1 ; strain: IIIB ; measure: EC50 ; read by: cytopathic effect / trypan blue ; cells: ATH8 ; result: <10 µM

For reference, 6 entries again:

Cc1cn([C@H]2C[C@H](N=[N+]=[N-])[C@@H](CO)O2)c(=O)[nH]c1=O ; changes: RT-M41L D67N K70R T215Y K219Q ; strain: G190-6 NRTI resistant ; measure: EC50 ; read by: p24 ; cells: PBMC ; result: >3.2 µM
Nc1ncnc2c1ncn2[C@H]1CC[C@@H](CO)O1 ; strain: IIIB ; measure: EC50 ; read by: cytopathic effect ; cells: MT-4 ; result: 19.2 µM
Nc1ncnc2c1ncn2CCCCO ; strain: IIIB ; measure: EC50 ; read by: cytopathic effect / trypan blue ; cells: ATH8 ; result: >1000 µM
Cc1cn([C@H]2C[C@H](N=[N+]=[N-])[C@@H](CO)O2)c(=O)[nH]c1=O ; strain: CLADE E ; measure: EC50 ; read by: RT activity ; cells: PBMC ; result: 0.1 µM
Oc1cc(O)c2c(c1)O[C@@H](c1ccc(O)c(O)c1)[C@@H](O)C2 ; measure: EC50 ; cells: C8166 ; result: 4 µg/mL
CC(C)CN(C[C@@H](O)[C@H](Cc1ccccc1)NC(=O)O[C@H]1CCOC1)S(=O)(=O)c1ccc(N)cc1 ; changes: Gag H219Q R409K L449F E468K PR L10F V32I M46I I54M A71V I84V ; strain: GAG-L75 H219Q V390 APV-resistant ; measure: EC50 ; read by: cytopathic effect / MTT ; cells: MT-2 ; result: >2.5 µM